Pooled drug test results. Numbers come from NIAID ChemDB, via PubChem.

Shared fields: growth or infection tests; organism: HIV-1; cells: MT-2; measure: EC50

Blank or dashed fields: not listed here.

{"smiles": "O=c1[nH]cnc2c1ncn2[C@@H]1O[C@H](CO)C[C@@H]1F", "strain or isolate": "RT P119S L214F", "mutations": "RT-P119S L214F", "method": "p24", "result": "38 µM"}
{"smiles": "Nc1nc(NC2CC2)c2ncn([C@H]3C=C[C@@H](CO)C3)c2n1", "strain or isolate": "Site-directed mutant", "mutations": "RT-K103N", "method": "cytopathic effect / XTT", "result": "1.5 µM"}
{"smiles": "CC(C)CN(C[C@@H](O)[C@H](Cc1ccccc1)NC(=O)[C@H](CC(N)=O)NC(=O)c1ccc2ccccc2n1)C(=O)NC(C)(C)C", "strain or isolate": "RF", "mutations": "PR-G48V A71T V82A", "result": "1.11 µM"}
{"smiles": "CCOP(=O)(COc1ccc(C[C@H](NC(=O)O[C@H]2CO[C@H]3OCC[C@H]32)[C@H](O)CN(CC(C)C)S(=O)(=O)c2ccc(OC)cc2)cc1)OCC", "strain or isolate": "IIIB", "method": "p24 / ELISA", "result": "0.0058 µM"}
{"smiles": "C[C@H](Cn1cnc2c(N)ncnc21)OCP(=O)(O)O", "strain or isolate": "Site-directed mutant", "mutations": "RT-K65R H221Y", "method": "cytopathic effect / XTT", "result": "12.96 µM"}
{"smiles": "Cc1cn([C@H]2C[C@H](N=[N+]=[N-])[C@@H](CO)O2)c(=O)[nH]c1=O", "strain or isolate": "IIIB", "mutations": "I401T", "method": "p24 / ELISA", "result": "0.153 µM"}
{"smiles": "O=c1[nH]cnc2c1ncn2[C@H]1CC[C@@H](CO)O1", "strain or isolate": "NL4-3", "method": "p24", "result": "0.24 µM"}
{"smiles": "Nc1nc(=O)n([C@@H]2CS[C@H](CO)O2)cc1F", "strain or isolate": "Clinical isolate", "mutations": "K103N/Y188L", "method": "recombinant virus assay", "result": "0.1806 µM"}
{"smiles": "Nc1ncnc2c1ncn2CCOCP(=O)(O)O", "strain or isolate": "HXB2", "method": "cytopathic effect / XTT", "result": "5.2 µM"}
{"smiles": "CCN(c1nc(F)ccc1NC(C)(C)C)C1CCN(C(=O)c2cc3cc(NC(=O)N4CCN(C)CC4)ccc3[nH]2)CC1", "strain or isolate": "IIIB", "mutations": "LPV-P31 resistant mutant", "method": "ATP", "result": "0.325 µM"}
{"smiles": "Cc1cn([C@H]2C[C@H](N=[N+]=[N-])[C@@H](CO)O2)c(=O)[nH]c1=O", "strain or isolate": "RT F77L/F116Y/Q151M", "mutations": "RT-F77L F116Y Q151M", "method": "p24", "result": "0.71 µM"}
{"smiles": "Cc1cn([C@H]2C=C[C@@H](CO)O2)c(=O)[nH]c1=O", "strain or isolate": "RT-T69G K103N", "mutations": "1(T69G+K103N)", "method": "p24", "result": "0.543 µM"}
{"smiles": "Cc1cn([C@H]2C=C[C@@H](CO)O2)c(=O)[nH]c1=O", "strain or isolate": "Clinical isolate", "mutations": "K65R/Y181C/G190S", "method": "recombinant virus assay", "result": "0.672 µM"}
{"smiles": "Cc1cn([C@H]2C=C[C@@H](CO)O2)c(=O)[nH]c1=O", "strain or isolate": "LAI", "method": "cytopathic effect / XTT", "result": "5.3 µM"}
{"smiles": "Nc1ncnc2c1ncn2[C@@H]1O[C@H](CO)C[C@@H]1F", "strain or isolate": "T215Y(RT-T215Y)", "mutations": "RT-T215Y", "method": "p24", "result": "5 µM"}
{"smiles": "Cc1cn([C@H]2C=C[C@@H](CO)O2)c(=O)[nH]c1=O", "strain or isolate": "Site-directed mutant", "mutations": "RT-K65R M184V", "method": "cytopathic effect / XTT", "result": "9.38 µM"}
{"smiles": "O=c1[nH]cnc2c1ncn2[C@H]1CC[C@@H](CO)O1", "strain or isolate": "Q151M(RT-Q151M)", "mutations": "RT-Q151M", "method": "p24", "result": "2.7 µM"}
{"smiles": "Nc1nc2c(ncn2[C@H]2CO[C@@H](CO)O2)c(=O)[nH]1", "strain or isolate": "NL4-3 Recombinant", "method": "cytopathic effect / XTT", "result": "1.6 µM"}
{"smiles": "C[C@H](Cn1cnc2c(N)ncnc21)OCP(=O)(O)O", "strain or isolate": "JF4A ddC-resistant (RT T69D)", "mutations": "RT-T69D", "method": "p24", "result": "1.5 µM"}
{"smiles": "Cc1ccnc2c1NC(=O)c1cccnc1N2C1CC1", "mutations": "RT-T69G", "method": "p24", "result": "0.014 µM"}

The last 2 rows once more:

smiles,strain or isolate,mutations,method,result
C[C@H](Cn1cnc2c(N)ncnc21)OCP(=O)(O)O,JF4A ddC-resistant (RT T69D),RT-T69D,p24,1.5 µM
Cc1ccnc2c1NC(=O)c1cccnc1N2C1CC1,,RT-T69G,p24,0.014 µM

Lines come from different laboratories, so protocols vary. ECn is the concentration giving n% inhibition of infection, replication or growth.